Laboratory results reported in PubChem BioAssay AID504863 (Sanford-Burnham Center for Chemical Genomics, 2011).
The entries are a selection whose mix differs from that of the whole data set. The source made the active and inactive calls.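 Rule for the calls: active = inhibition averaging 50% or more, tested at 20 µM; inactive = the rest.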

System: diaphorase (Clostridium kluyveri)
Assay: diaphorase inhibitors and chemical oxidizers, confirmation, counter-screen for P. falciparum G6PD inhibitor project, biochemical, fluorescence intensity, 30 µM NADPH (AID 504863);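 note: 0% = DMSO with enzyme and 100% = DMSO wells lacking diaphorase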
Conditions: Diaphorase/resazurin coupled assay, resorufin fluorescence, at 20 µM, active compounds read high

SMILES: CN(C)C(=O)c1cc([N+](=O)[O-])cc2c1-c1c(cc([N+](=O)[O-])cc1[N+](=O)[O-])C2=O
- inhibition: active: 79.8%
